Measured values from several laboratories, pooled; numbers as filed in NIAID ChemDB.

Shared fields: enzyme or target tests

Fold resistance has wild type as its base. Lines come from different laboratories, so protocols vary. Blank or dashed fields: not listed here. Percent inhibition refers to the dose given; in toxicity tests it is the harm to the cells. ICn: concentration for n% inhibition. Two numbers with a dash give a range or band.

structure | organism | changes | strain | read by | measure | target | tested at | value
Nc1nc2c(ncn2[C@H]2CO[C@@H](COP(=O)(O)OP(=O)(O)OP(=O)(O)O)O2)c(=O)[nH]1 | HIV | RT-K65R |  | radiometric | fold resistance | Reverse transcriptase |  | 1.8
Cn1nnnc1CN1CCn2c(nc(C(=O)NCc3ccc(F)cc3)c(O)c2=O)C1(C)C | HIV-1 |  |  | ELISA | IC50 | Integrase |  | <10 µM
NCCCOc1ccc(-c2cc3ccccc3s2)cc1CNCC1CCNCC1 | HIV-1 |  |  | FRET | Ki | Tat:TAR/LTR |  | 0.476 µM
O=c1c(-c2ccccn2)cn2ccn(Cc3cccc(Cl)c3F)c(=O)c2c1O | HIV-1 |  |  | ELISA | IC50 | Integrase |  | <0.01 µM
CC(C)(C#Cc1ccc(NC(=O)CSc2nnnn2-c2ccc(C(C)(C)C)cc2Cl)c(Cl)c1)OCC(=O)Nc1ccncc1 | HIV-1 | RT-K103 Y181C |  | PicoGreen / fluorescence | IC50 | Reverse transcriptase |  | <1 µM
COc1ccc(OCCN=C(N)N)c(CNCCCCN=C(N)N)c1 | HIV-1 |  |  | FRET | Ki | Tat:TAR/LTR |  | 1.3 µM
CCOC(=O)N1CCN(C(=O)[C@@H]2O[C@@H]3CN(Cc4ccccc4)C(=S)[C@H]2O3)CC1 | HIV-1 |  |  | FRET | inhibition | Protease | 10 µM | 0%
Cn1cc(NC(=O)COc2ccc(NC(=O)CSc3nnnn3-c3ccc(C(C)(C)C)cc3Cl)c(Cl)c2)cc1C(=O)O | HIV-1 |  | WT | PicoGreen / fluorescence | IC50 | Reverse transcriptase |  | <1 µM
COC(=O)c1ccc(C(=O)NCc2ccncc2)c(O)c1O | HIV |  |  | strand transfer | IC50 | Integrase |  | <0.5 µM
NC(N)=NC[C@H]1O[C@H](O[C@H]2[C@H](O)[C@@H](O[C@H]3O[C@@H](CO)[C@H](O)[C@@H](N=C(N)N)[C@@H]3O)[C@H](N=C(N)N)C[C@@H]2N=C(N)N)[C@H](N=C(N)N)C[C@@H]1O | HIV-1 |  |  | fluorescence | IC50 | Rev:RRE |  | 3.8 µM
Nc1ccn([C@@H]2O[C@H](CO)[C@@H](OP(=O)(O)OC[C@H]3O[C@@H](n4cnc5c(=O)[nH]c(N)nc54)[C@H](O)[C@@H]3O)[C@H]2O)c(=O)n1 | HIV-1 |  |  | RNase H | inhibition | RNase H | 50 µM | 37%
CC(C)(C#Cc1ccc(NC(=O)CSc2nnnn2-c2ccc(C3CC3)cc2Cl)c(Cl)c1)OCCN | HIV-1 | RT-K103 Y181C |  | PicoGreen / fluorescence | IC50 | Reverse transcriptase |  | <1 µM
CN1CCn2c(nc(C(=O)NCc3ccc(F)cc3)c(O)c2=O)C12CCOCC2 | HIV-1 |  |  | ELISA | IC50 | Integrase |  | <10 µM
CC(C)(C#Cc1ccc(NC(=O)CSc2nnnn2-c2cc(C3CC3)ccc2Cl)c(Cl)c1)NC(=O)c1cc[n+]([O-])cc1 | HIV-1 | RT-K103 Y181C |  | PicoGreen / fluorescence | IC50 | Reverse transcriptase |  | <1 µM
Nc1ncnc2c1ncn2[C@@H]1O[C@H](COP(=O)(O)O[C@H]2[C@@H](O)[C@H](n3cnc4c(N)ncnc43)O[C@@H]2CO)[C@@H](O)[C@H]1O | HIV-1 |  |  | RNase H | inhibition | RNase H | 50 µM | 1%
NC(N)=NC[C@@H]1O[C@H](O[C@H]2[C@H](O)[C@@H](O[C@H]3O[C@@H](CO)[C@H](O)[C@@H](N=C(N)N)[C@@H]3O)[C@H](N=C(N)N)C[C@@H]2N=C(N)N)[C@@H](O)[C@H](O)[C@H]1O | HIV-1 |  |  | fluorescence | IC50 | Rev:RRE |  | 3.5 µM
O=C(/C=C/c1cccn1Cc1ccccc1Cl)CC(=O)C(=O)O | HIV-1 | R448A |  | substrate cleavage / fluorescence | IC50 | RNase H |  | 20 µM
COC(=O)c1ccc(C(=O)NCc2cccnc2)c(O)c1O | HIV |  |  | strand transfer | IC50 | Integrase |  | <0.5 µM
O=C(NCC(F)(F)F)[C@@H]1O[C@]2(c3ccccc3)CN(C(c3ccccc3)c3ccccc3)C(=O)[C@H]1O2 | HIV-1 |  |  | FRET | inhibition | Protease | 10 µM | 0%
CC(C)(C)c1ccc(-n2nnnc2SCC(=O)Nc2ccc(NC(=O)Cc3ccccc3Cl)cc2Cl)c(Cl)c1 | HIV-1 | RT-K103 Y181C |  | PicoGreen / fluorescence | IC50 | Reverse transcriptase |  | <1 µM
CCCCCCCCCCCCCCCCCC(=O)NCCN(CC(=O)O)C(=O)Cn1cc(C)c(=O)[nH]c1=O | HIV |  |  |  | IC50 | Integrase |  | 22 µM
CN(C)CCCNC(=O)C(C)(C)C#Cc1ccc(NC(=O)CSc2nnnn2-c2ccc(C3CC3)cc2Cl)c(Cl)c1 | HIV-1 | RT-K103 Y181C |  | PicoGreen / fluorescence | IC50 | Reverse transcriptase |  | <1 µM
CC(=O)N1CCn2c(nc(C(=O)NCc3ccc(F)cc3)c(O)c2=O)C(N(C)C(=O)C(=O)N(C)C)C1 | HIV-1 |  |  | ELISA | IC50 | Integrase |  | <10 µM
CC(C)(C#Cc1ccc(NC(=O)CSc2nnnn2-c2ccc(C3CC3)cc2Cl)c(Cl)c1F)OCCN1CCC(F)(F)C1 | HIV-1 | RT-K103 Y181C |  | PicoGreen / fluorescence | IC50 | Reverse transcriptase |  | <1 µM
CC(=O)N1CCn2c(nc(C(=O)NCc3ccc(F)cc3)c(O)c2=O)C1CN(C)C | HIV-1 |  |  | ELISA | IC50 | Integrase |  | <10 µM
NCCCOc1ccc(-c2cc3ccccc3s2)cc1CNCCCCN=C(N)N | HIV-1 |  |  | FRET | Ki | Tat:TAR/LTR |  | 0.168 µM
Cn1ccc(CN2CCn3c(nc(C(=O)NCc4ccc(F)cc4)c(O)c3=O)C23CC3)n1 | HIV-1 |  |  | ELISA | IC50 | Integrase |  | <10 µM
CCOC(=O)C(=O)CC(=O)/C=C/c1cc(-c2ccccc2)cn1Cc1ccc(F)cc1 | HIV-1 | N474A |  | substrate cleavage / fluorescence | inhibition | RNase H | 100 µM | 0%
CC(C)c1ccc(-n2nnnc2SCC(=O)Nc2ccc(-c3ccc(C(C)(C)C(=O)O)cc3)cc2Cl)c(Cl)c1 | HIV-1 |  | WT | PicoGreen / fluorescence | IC50 | Reverse transcriptase |  | <1 µM
O=Cc1cn(Cc2cccc(Cl)c2)c(=O)c2c(O)c(=O)ccn12 | HIV-1 |  |  | ELISA | IC50 | Integrase |  | 0.01–0.1 µM
COC(=O)c1ccc2c(=O)n(Cc3ccccc3)c(=O)oc2c1O | HIV |  |  | strand transfer | IC50 | Integrase |  | <0.5 µM
CO[C@@H]1[C@H](O)[C@@H](COP(=O)(O)O[C@H]2C[C@H](n3cnc4c(=O)[nH]c(N)nc43)O[C@@H]2CO)O[C@H]1n1cnc2c(=O)[nH]c(N)nc21 | HIV-1 |  |  | RNase H | inhibition | RNase H | 50 µM | 100%
CC(C)(C#Cc1ccc(NC(=O)CSc2nnnn2-c2cc(Cl)ccc2Cl)c(Cl)c1)NC(=O)c1cc[n+]([O-])cc1 | HIV-1 |  | WT | PicoGreen / fluorescence | IC50 | Reverse transcriptase |  | <1 µM
NC[C@H]1O[C@H](O[C@H]2[C@H](O)[C@@H](O[C@H]3O[C@H](CO)[C@@H](O)[C@H](N)[C@H]3O)[C@H](N)C[C@@H]2N)[C@H](N)C[C@@H]1O | HIV-1 |  |  | fluorescence | IC50 | Rev:RRE |  | 80 µM
CC(C)(C#Cc1ccc(NC(=O)CSc2nnnn2-c2cc(Cl)ccc2Cl)c(Cl)c1)C(=O)O | HIV-1 |  | WT | PicoGreen / fluorescence | IC50 | Reverse transcriptase |  | <1 µM
CC(C)S(=O)(=O)Nc1cn2ccn(Cc3ccc(F)cc3)c(=O)c2c(O)c1=O | HIV-1 |  |  | ELISA | IC50 | Integrase |  | 0.01–0.1 µM
O=C1Cc2ccc(-c3ccco3)cc2C(=O)N1O | HIV-1 |  |  | RNase H / substrate cleavage / fluorescence | Ki | RNase H |  | 0.02 µM
CCOC(=O)C(=O)CC(=O)/C=C/c1cccn1Cc1ccc(C)cc1C | HIV-1 | R557A |  | substrate cleavage / fluorescence | IC50 | RNase H |  | 20 µM
CCCC(C)Nc1nc(OCCc2ccc([N+](=O)[O-])cc2)c2ncn([C@@H]3O[C@H](COP(O)(=S)O[C@H]4C[C@H](n5cnc6c(N)ncnc65)O[C@@H]4CO)[C@@H](O)[C@H]3O)c2n1 | HIV-1 |  |  | RNase H | Ki | RNase H |  | 0.57 µM
CC(C)(C)c1ccc(-n2nnnc2SCC(=O)Nc2ccc(NC(=O)Cc3ccccn3)cc2Cl)c(Cl)c1 | HIV-1 | RT-K103 Y181C |  | PicoGreen / fluorescence | IC50 | Reverse transcriptase |  | <1 µM
COc1ccc(S(=O)(=O)O)cc1N=Nc1c(S(=O)(=O)O)cc2cc(Nc3nc(Nc4ccccc4)nc(Nc4cc(C)c(N=Nc5cc(S(=O)(=O)O)cc6cc(S(=O)(=O)O)cc(O)c56)cc4OC)n3)ccc2c1O | HIV-1 |  |  | ELISA | inhibition | gp41 | 2.5 µg/mL | 90%
CN1CCn2c(nc(C(=O)NCc3ccc(F)cc3)c(O)c2=O)C(N(C)S(=O)(=O)N(C)C)C1 | HIV-1 |  |  | ELISA | IC50 | Integrase |  | <10 µM
Cc1cc(C(F)(F)F)cc(-n2nnnc2SCC(=O)Nc2ccc(C#CC(C)(C)C(=O)O)cc2Cl)c1Cl | HIV-1 |  | WT | PicoGreen / fluorescence | IC50 | Reverse transcriptase |  | <1 µM
Nc1nc2c(ncn2[C@@H]2O[C@H](COCO[C@@H]3[C@H](O)[C@@H](CO)O[C@H]3n3cnc4c(=O)[nH]c(N)nc43)[C@@H](O)[C@H]2O)c(=O)[nH]1 | HIV-1 |  |  | RNase H | inhibition | RNase H | 50 µM | 65%
O=C(COc1ccc(NC(=O)CSc2nnnn2-c2ccc(C3CC3)cc2Cl)c(Cl)c1)NCCc1cccnc1 | HIV-1 |  | WT | PicoGreen / fluorescence | IC50 | Reverse transcriptase |  | <1 µM
NC(N)=NC[C@@H]1O[C@H](O[C@H]2[C@@H](O)[C@H](O[C@@H]3[C@H](O)[C@@H](N=C(N)N)C[C@@H](N=C(N)N)[C@H]3O[C@H]3O[C@H](CN=C(N)N)[C@@H](O)[C@H](O)[C@H]3N=C(N)N)O[C@@H]2CO)[C@H](N=C(N)N)[C@@H](O)[C@@H]1O | HIV-1 |  |  | fluorescence | IC50 | Rev:RRE |  | 1.3 µM
Nc1nc2c(ncn2[C@H]2CC[C@@H](COP(=O)(O)OP(=O)(O)OP(=O)(O)O)O2)c(=O)[nH]1 | HIV | RT-F77L Q151M |  | nucleotide incorporation / radiometric | IC50 | Reverse transcriptase |  | 0.045 µM
Nc1nc(OCCc2ccc([N+](=O)[O-])cc2)c2ncn([C@@H]3O[C@H](COP(O)(=S)O[C@H]4[C@@H](F)[C@H](n5cnc6c(N)ncnc65)O[C@@H]4CO)[C@@H](O)[C@H]3O)c2n1 | HIV-1 |  |  | RNase H | Ki | RNase H |  | 11.5 µM
CSCCC1CN(Cc2ccc(Cl)c(Cl)c2)C(=O)c2c(O)c(=O)ccn21 | HIV-1 |  |  | ELISA | IC50 | Integrase |  | 0.01–0.1 µM
NCCCOc1ccc(-c2ccc3ccccc3c2)cc1CNCCCCN=C(N)N | HIV-1 |  |  | FRET | Ki | Tat:TAR/LTR |  | 0.43 µM
COc1ccnc2[nH]cc(C(=O)C(=O)N3CCN(C(=O)c4ccccc4)C[C@H]3C)c12 | HIV-1 | GP120-M426L | NL4-3 | ELISA | fold resistance | gp120 |  | >97
Cc1ccc(-n2nnnc2SCC(=O)Nc2ccc(C#CC(C)(C)O)cc2Cl)c(Cl)c1C(F)(F)F | HIV-1 | RT-K103 Y181C |  | PicoGreen / fluorescence | IC50 | Reverse transcriptase |  | <1 µM
O=C(NCCO)c1cn2ccn(Cc3cccc(Cl)c3)c(=O)c2c(O)c1=O | HIV-1 |  |  | ELISA | IC50 | Integrase |  | 0.01–0.1 µM
CN1CCN(C(=O)[C@@H]2O[C@H]3O[C@@H]2C(=O)N(Cc2ccccc2)[C@@H]3Cc2ccccc2)CC1 | HIV-1 |  |  | FRET | inhibition | Protease | 10 µM | 80%
CC(C)(C)c1ccc(-n2nnnc2SCC(=O)Nc2ccc(NC(=O)CC3CCCC3)cc2Cl)c(Cl)c1 | HIV-1 |  | WT | PicoGreen / fluorescence | IC50 | Reverse transcriptase |  | <1 µM
O=C(/C=C/c1cccn1Cc1ccc(F)cc1)CC(=O)C(=O)O | HIV-1 | Q475A |  | substrate cleavage / fluorescence | IC50 | RNase H |  | 5.5 µM
Nc1nc2c(ncn2[C@@H]2O[C@H](COP(=O)(O)O[C@H]3[C@@H](F)[C@H](n4cnc5c(N)ncnc54)O[C@@H]3CO)[C@@H](O)[C@H]2O)c(=O)[nH]1 | HIV-1 |  |  | RNase H | inhibition | RNase H | 50 µM | 34%
CC(C)(C)c1ccc(-n2nnnc2SCC(=O)Nc2ccc(OCC(=O)NCc3ccc(N)cc3)cc2Cl)c(Cl)c1 | HIV-1 | RT-K103 Y181C |  | PicoGreen / fluorescence | IC50 | Reverse transcriptase |  | <1 µM
CC1(C)c2nc(C(=O)NCc3ccc(F)cc3)c(O)c(=O)n2CCN1Cc1cocn1 | HIV-1 |  |  | ELISA | IC50 | Integrase |  | <10 µM
NCCCOc1ccc(-c2ccccn2)cc1CNCC1CCNCC1 | HIV-1 |  |  | FRET | Ki | Tat:TAR/LTR |  | 0.428 µM
Nc1ccn([C@H]2CC[C@@H](COP(=O)(O)OP(=O)(O)OP(=O)(O)O)O2)c(=O)n1 | HIV |  |  | nucleotide incorporation / radiometric | IC50 | Reverse transcriptase |  | 5 µM
O=c1c(-c2cncs2)cn2ccn(Cc3cccc(Cl)c3)c(=O)c2c1O | HIV-1 |  |  | ELISA | IC50 | Integrase |  | <0.01 µM
CC(C)(N)C#Cc1ccc(NC(=O)CSc2nnnn2-c2cc(C(C)(C)C)cc(Br)c2Cl)c(Cl)c1 | HIV-1 | RT-K103 Y181C |  | PicoGreen / fluorescence | IC50 | Reverse transcriptase |  | <1 µM
CC(C)c1cn2ccn(Cc3cccc(Cl)c3)c(=O)c2c(O)c1=O | HIV-1 |  |  | ELISA | IC50 | Integrase |  | 0.01–0.1 µM
CC(C)(N)C#Cc1ccc(NC(=O)CSc2nnnn2-c2cc(Br)ccc2Cl)c(Cl)c1 | HIV-1 |  | WT | PicoGreen / fluorescence | IC50 | Reverse transcriptase |  | <1 µM
O=C(NCc1ccc(F)cc1)c1nc2n(c(=O)c1O)CCN(C(=O)C(F)(F)F)C2 | HIV-1 |  |  | ELISA | IC50 | Integrase |  | <10 µM